The text below walks through data of patent US20040121316A1 (priority 2002, published 2004).

The test system of one assay is WT HIV-1. The settings on record: read-out: Cell-based assay (MT-4) EC50/nM WT.
The target in another assay is T1, WT HIV protease (Human immunodeficiency virus type 1 group M subtype B, UniProt P04585).
T1 construct: synthetic hexapeptide substrate cleavage by HIV-1 protease
In kind it is biochemical, HIV-1.

Assay [1] deals with T2, recombinant HIV-1 protease (Human immunodeficiency virus type 1 group M subtype B, UniProt P04585).
T2 construct: Enzyme: recombinant HIV-1 protease expressed in E.Coli; purchased Bachem California, Inc. H-9040; host or cells: E. coli
In kind it is biochemical.

For the substance DMP-850 [reference compound], the EC50 in the assay on WT HIV-1 amounted to 165 nM. In addition, half-maximal inhibition at WT HIV protease (IC50) required 3 nM. Further, the Ki in assay [1] is 0.033 nM.
